The values below come from ChEMBL document CHEMBL4651402, “Screening of ~5500 FDA-approved drugs and clinical candidates for anti-SARS-CoV-2 activity” (2021).

This assay relates to SARS-CoV-2. As to the kind of experiment: microbe, parasite or virus in culture. The following applies: Severe acute respiratory syndrome coronavirus 2, Vero C1008, 48 h.

Bounds are passed on as bounds.

Compound `CC(Cc1ccc(O)cc1)NCC(O)c1cc(O)cc(O)c1` (centres undefined) [FENOTEROL] showed an IC50 greater than 20 µM. The IC50 (read-out: pIC50 (converted)) was greater than 20 µM.
`COc1ccc(CC(C)NCC(O)c2ccc(O)c(NC=O)c2)cc1` (centres undefined) [FORMOTEROL]: the IC50 is greater than 20 µM. For the same compound, the IC50 (read-out: pIC50 (converted)) was greater than 20 µM.
